The target of this data set is T1, His6-Euo (Waddlia chondrophila) (UniProt D6YSI2).
T1 sequence (looked up, limits assumed): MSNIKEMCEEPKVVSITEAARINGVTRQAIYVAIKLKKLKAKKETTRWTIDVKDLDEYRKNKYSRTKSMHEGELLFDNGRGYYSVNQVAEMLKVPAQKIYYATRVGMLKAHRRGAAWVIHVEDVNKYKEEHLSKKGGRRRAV
The experiment in a line: EMSA. The note with it: EMSA with Cy5 PCR probes or 80 ng unlabelled DNA (GelRed), recombinant protein, protein details: His6.

For at least one entry, the source does not settle the construct or the ends of the probe. At least one verdict rests on a figure or table, not on a statement of the authors. Tags and fusion partners may be left off the protein sequences shown.

Take “AAACTGCAGGGCCAATCTTTCATTGATTGTCCATTCATGGTCGGCAATTTTTGAGAGAATTTCTTTATTTTAGGGTTCGTTCTTTGATAGGGTTGCAGGCATGGTGCAAGTGCAGGATTCAGTTTTAGGAAAAAAGACGTTTTATAAGGATCGGTACGAGTCGACAAA (double strand) [PqueF_mut 3+4]”: the binding result (label: Cy5) is “binds”.
As for “AAACTGCAGGGCCAATCTTTCATTGATTGTCCATTCATGGTCGGCAATTTTTGAGAGAATTTCTTTATTTTAAAAAAGCAACTTTGATAAAATTGCAGGCATGGTGCAAGTGCAGGATTCAGTTTTAGGAAAAAAGACGTTTTATAAGGATCGGTACGAGTCGACAAA (double strand) [PqueF_6SNP_internal]”, the binding result is “binds”.
On the same count and under the same terms, the same measure for “AAACTGCAGGGCCAATCTTTCATTGATTGTCCATTCATGGTCGGCAATTTTTGAGAGAATTTCTTTATTTTATTTTTCGTTGAATGATAAAATTGCAGGCATGGTGCAAGTGCAGGATTCAGTTTTAGGAAAAAAGACGTTTTATAAGGATCGGTACGAGTCGACAAA (double strand) [PqueF_6SNP]”: “binds”.
Turning to “AAACTGCAGGGCCAATCTTTCATTGATTGTCCATTCATGGTCGGCAATTTTTGAGAGAATTTCTTTATTTTATTTATCGTTGAAAGATAAAATTGCAGGCATGGTGCAAGTGCAGGATTCAGTTTTAGGAAAAAAGACGTTTTATAAGGATCGGTACGAGTCGACAAA (double strand) [PqueF_8SNP]”, the binding result was “binds”.
For the sequence “TTTGTCGACTTATCTTACACAACTGAGACTTCCAATGGTACTAAAATTCTTAAAATCTAGTTTTGAAAAAGTTAAAAATGCCCTCTCCAAAACGCGTTCCGCTCTGGGAGAAAAATTGCGTTCTCTTTTCAGTGGAAAAATCGATGAAGAAACACTGGACTGCAGTTT (double strand) [PftsY_wt]”, the binding result (label: Cy5) was “binds”.
With “AAACTGCAGGGCCAATCTTTCATTGATTGTCCATTCATGGTCGGCAATTTTTGAGAGAATTTCTTTATTTTAAAATTCGTTCTTTGATAAAATTGCAGGCATGGTGCAAGTGCAGGATTCAGTTTTAGGAAAAAAGACGTTTTATAAGGATCGGTACGAGTCGACAAA (double strand) [PqueF_wt]”, the binding result (label: Cy5) was “binds”.

The record behind these values is PMC4989314, “Regulatory (pan-)genome of an obligate intracellular pathogen in the PVC superphylum”.
